# Values from PubChem BioAssay AID624099 (ICCB-Longwood, 2012)
# Screen: 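Human genes that papillomavirus E2 requires to repress the HPV18 LCR promoter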 (primary screen)
# System: human C33A cervical carcinoma cells (HPV-negative) stably expressing BPV1 E2 and an HPV18 LCR luciferase reporter
# Reagents: siRNA pool against human genes, 40 nM
# Duration: 72 h
# Measurement: 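HPV18 LCR reporter light per well, converted to plate-wise z-scores that exclude control wells, and averaged over triplicate plates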
# Direction: mean z-score and z-score: higher = stronger reporter signal, weaker E2 silencing
# Active means: 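Hit if mean z-score reaches 2 and two or more of three replicate z-scores also reach 2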
# Shown is an unselected part of about 21,000 reagents tested. Of all reagents, 497 (2.4%) are marked active. 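Higher z means weaker E2 silencing; only reporter increases were scored, and knock-downs that hurt cell survival may mask genuine repressor factors.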 A number with no mark means an inactive call.
gene symbol,mean z-score,"z-score, replicate A","z-score, replicate B","z-score, replicate C"
RNH1,-1.02,-1.04,-1.29,-0.74
UGT1A5,0.22,0.16,-0.09,0.59
TCP10L3,0.99,0.9,0.82,1.26
LOC389150 (retired record),-1.93,-1.64,-1.85,-2.3
LIG3,-0.78,-0.65,-0.91,-0.79
PKN1,0.31,0.25,0.17,0.51
ZNF562,0.36,0.09,0.33,0.67
INPPL1,1.47,1.26,1.46,1.7
PYGO1,-0.16,-0.25,-0.1,-0.11
CRYGA,-0.34,-0.03,-0.42,-0.57
ROM1,0.3,0.48,0.41,-0.01
ETHE1,0.5,0.29,0.43,0.76
GMPS,0.56,0.71,0.41,0.55
LOC387710 (retired record),-0.65,-0.48,-0.41,-1.06
WT1-AS,-1.23,-0.99,-1.26,-1.43
MRPL23,0.9,0.62,1.07,1.02

In a second layout: 2 of the entries above.
gene symbol	mean z-score	z-score, replicate A	z-score, replicate B	z-score, replicate C
ETHE1	0.5	0.29	0.43	0.76
GMPS	0.56	0.71	0.41	0.55

More reagents follow.
gene symbol,mean z-score,"z-score, replicate A","z-score, replicate B","z-score, replicate C"
TRHR,-0.25,-0.25,-0.12,-0.39
POLR2K,-0.51,-0.43,-0.41,-0.69
AACS,1.42,1.38,1.35,1.55
KCNQ3,-0.2,-0.2,0.02,-0.4
B3GNT5,0.71,0.22,0.62,1.27
LTA,-0.71,-1.22,-0.36,-0.54
CCDC34,0.82,0.83,0.62,1.02
LOC400790 (retired record),-0.59,-0.13,-0.88,-0.76
IL3,-0.52,-0.55,-0.55,-0.47
WFS1,1.57,1.64,1.48,1.6
PRAMEF10,1.49,1.54,1.59,1.35
BMS1P15,-1.03,-1.13,-1.24,-0.72
INPP4A,0.28,0.3,0.19,0.35
RANBP6,-0.4,-0.61,-0.06,-0.52
NT5C3A,-0.45,-0.43,-0.68,-0.23
LOC389147 (retired record),1.47,2.15,1.39,0.85
SMARCA2,1.08,1.34,0.86,1.05
GTF3C3,-0.5,-0.56,-0.4,-0.55
HSD11B1,1.31,1.47,1.64,0.82
NDUFA11,-0.06,0.34,-0.23,-0.27
HPGD,0.59,0.48,0.49,0.79
GPX1,-0.3,-0.14,-0.44,-0.32
RNF112,0.16,0.01,0.3,0.16
